Data as given in PubChem BioAssay AID504761 (Drosophila RNAi Screening Center, 2011)

Assay: 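Genome-wide fly cell screen for genes dengue virus requires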 (primary screen)
System: D.Mel-2 cells from Drosophila
Reagent: long dsRNA against Drosophila genes
Challenge: infection with dengue virus type 2; dose and infection time not stated
Measurement: 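Cells stained for dengue envelope protein and imaged; percent of infected cells per well on duplicate plates, ranked by infection, with stained nuclei counted for cell number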
Scale: infection score: higher = more virus-infected cells; cell count: higher = more cells in the well
Hit rule: 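Very low infection ranking in both replicate wells (chance probability at most 0.065), then a retest showing infection dropped 1.5-fold or more at p below 0.05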
Calls: active = confirmed: knock-down lowers infection; inactive = not picked or not confirmed
The deposit covers about 22,000 reagents; shown is a random part of those that have a named target and a result. In the full data, 116 (0.52%) were called active. 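Calls depend on retest data that are not deposited; infection was ranked per plate without normalising between plates; the unit of the infection score is not given.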 The raw values are shown without normalisation. Reagents against one gene are numbered here. Names joined by + are all predicted targets of the reagent. The record does not give: the amount of reagent, the time to read-out.

Target gene | reagent | infection score, replicate 1 | infection score, replicate 2 | cell count, replicate 1 | cell count, replicate 2 | call
Cdc50 (Cell division cycle 50) | 1 | 40.6 | 14.2 | 6025 | 6654 | inactive
RfC4 (Replication factor C subunit 4) | 1 | 10.5 | 2.24 | 5712 | 5807 | inactive
RfC4 (Replication factor C subunit 4) | 2 | – | 2.36 | 263 | 552 | inactive
CG6607 | 1 | 14.8 | 25.6 | 3650 | 4244 | inactive
Or45a (Odorant receptor 45a) | 1 | 3.55 | 8.22 | 6623 | 6021 | inactive
Or45a (Odorant receptor 45a) | 2 | 23 | 12.7 | 6761 | 7200 | inactive
CG34448 | 1 | 3.16 | 0.36 | 6229 | 6148 | inactive
CG32106 | 1 | 4.7 | 5.35 | 6069 | 6257 | inactive
Nep4 (Neprilysin 4) | 1 | 8.04 | 2.66 | 6552 | 6689 | inactive
CG10324 | 1 | 3.83 | 6.23 | 5456 | 5204 | inactive
l(2)k05819 (lethal (2) k05819) | 1 | 10.8 | 10.9 | 6334 | 2462 | inactive
term (terminus) | 1 | 29.1 | 8.65 | 5484 | 5964 | inactive
CG18213 | 1 | 2.53 | 6.36 | 6566 | 6869 | inactive
CG15021 | 1 | 1.44 | 8.27 | 6324 | 6819 | inactive
CG15021 | 2 | 4.1 | 3.94 | 6341 | 6426 | inactive
qin | 1 | 12.8 | 8.6 | 5943 | 6103 | inactive
CG8578 | 1 | 9.4 | 3.69 | 6552 | 5970 | inactive
Neurl4 (Neuralized E3 ubiquitin protein ligase 4) | 1 | 3.41 | 4.45 | 6807 | 6855 | inactive
Atox1 (Antioxidant 1 copper chaperone) | 1 | 1.65 | 5.61 | 6050 | 7025 | inactive
CG5359 | 1 | 4.01 | 8.56 | 6510 | 7017 | inactive
Boh1 (Buddy of Hmr 1) | 1 | 3.97 | 6.59 | 6366 | 6844 | inactive
CG5500 | 1 | 1.46 | 1.32 | 6316 | 6661 | inactive
CG5500 | 2 | 19.4 | 18.4 | 5612 | 5593 | inactive
CDase (Ceramidase) | 1 | 4.82 | 40 | 6019 | 3790 | inactive
Hr39 (Hormone receptor-like in 39) | 1 | 5.05 | 9.09 | 6540 | 6205 | inactive
Hr39 (Hormone receptor-like in 39) | 2 | – | 8.21 | 581 | 6247 | inactive
blw (bellwether) | 1 | 7.67 | 18.9 | 5293 | 5453 | inactive
boss (bride of sevenless) | 1 | 1.59 | 1.59 | 6652 | 6926 | inactive
boss (bride of sevenless) | 2 | 3.81 | 3.43 | 6326 | 6102 | inactive
CG7639 | 1 | 8.55 | 7.33 | 6421 | 6305 | inactive
tay (tay bridge) | 1 | 2 | 1.78 | 6293 | 6468 | inactive
Gk1 (Glycerol kinase 1) | 1 | 3.36 | 12.2 | 6587 | 5244 | inactive
Gk1 (Glycerol kinase 1) | 2 | 10.1 | 4.52 | 6060 | 6132 | inactive
Srg1 (Sting-regulated gene 1) | 1 | – | – | 399 | 325 | inactive
Srg1 (Sting-regulated gene 1) | 2 | 16.7 | 14.2 | 2626 | 5756 | inactive
Wwox (WW domain containing oxidoreductase) | 1 | 1.39 | 7.4 | 5693 | 5800 | inactive
Wwox (WW domain containing oxidoreductase) | 2 | 0.76 | 5.32 | 6177 | 6106 | inactive
Wwox (WW domain containing oxidoreductase) | 3 | 1.41 | 5.19 | 6311 | 6187 | inactive
Cpr65Aw (Cuticular protein 65Aw) | 1 | 0.87 | 0.92 | 6063 | 5769 | inactive
CG30088 | 1 | 5.51 | 6.73 | 6466 | 6090 | inactive
CG30088 | 2 | 2.91 | 1.43 | 6502 | 6212 | inactive
CG12702 | 1 | 10.2 | 0.1 | 4696 | 5922 | inactive
CG12702 | 2 | 16.8 | 2.59 | 6096 | 6131 | inactive
TotF (Turandot F) | 1 | 21.8 | 23 | 4555 | 5400 | inactive
und (uninitiated) | 1 | 14.5 | 5 | 5823 | 5276 | inactive
CG12672 | 1 | 7.12 | 4.48 | 6054 | 6499 | inactive
CG12672 | 2 | 3.79 | 2.28 | 6124 | 6277 | inactive
Tmlh (Trimethyllysine hydroxylase) | 1 | 1.54 | 4.61 | 6346 | 6447 | inactive
Obsc (Obscurin) | 1 | 9.33 | 3.9 | 5801 | 6135 | inactive
Obsc (Obscurin) | 2 | 14.1 | 41 | 6120 | 4806 | inactive
Obsc (Obscurin) | 3 | 21.2 | 16.9 | 5766 | 3778 | inactive
Obsc (Obscurin) | 4 | 16.3 | 36.4 | 4160 | 5480 | inactive
Obsc (Obscurin) | 5 | 2.34 | 6.03 | 6038 | 6962 | inactive
Npc2c (Niemann-Pick type C-2c) | 1 | 3.86 | 2.19 | 6529 | 6379 | inactive
Npc2c (Niemann-Pick type C-2c) | 2 | 12.3 | 4.07 | 4201 | 1057 | inactive
CG3176 + CR18166 + CG32817 | 1 | 0.15 | 0.02 | 6137 | 6499 | active
CG3176 + CR18166 + CG32817 | 2 | 0.52 | 0.44 | 6504 | 6524 | inactive
CG3176 + CR18166 + CG32817 | 3 | 2.42 | 10.8 | 6613 | 6653 | inactive
CG3176 + CR18166 + CG32817 | 4 | 12.6 | 14 | 3151 | 5741 | inactive
l(3)07882 (lethal (3) 07882) | 1 | 4.35 | 6.63 | 6259 | 6089 | inactive
Pak (p21-activated kinase) | 1 | 13.5 | 4.65 | 4013 | 1227 | inactive
Pak (p21-activated kinase) | 2 | 1.47 | 1.95 | 6781 | 6860 | inactive
Rab23 | 1 | 3.57 | 6.29 | 6465 | 6101 | inactive
Rab23 | 2 | 3.83 | 5.81 | 5879 | 6631 | inactive
SCCRO4 (Squamous cell carcinoma-related oncogene 4) | 1 | 3.1 | – | 936 | 394 | inactive
CG31206 | 1 | 0.82 | 1.68 | 5986 | 5429 | inactive
Cyp6a13 (Cytochrome P450 6a13) | 1 | 10.5 | 6.68 | 5949 | 6243 | inactive
CG8173 | 1 | 1.86 | 13.5 | 6819 | 5814 | inactive
grh (grainy head) | 1 | 1.26 | 0.6 | 6247 | 5877 | inactive
grh (grainy head) | 2 | 1.54 | 1.8 | 5789 | 5217 | inactive
grh (grainy head) | 3 | 12.3 | 13.6 | 6063 | 5211 | inactive
grh (grainy head) | 4 | 8.51 | 12.9 | 6273 | 5856 | inactive
grh (grainy head) | 5 | 2.73 | 3.11 | 6224 | 6148 | inactive
mxc (multi sex combs) | 1 | 4.7 | 2.03 | 4168 | 4622 | inactive
